Values of other authors, collected in US20100311767A1 (priority 2007, published 2010).

Columns and labels:
[1] = biological target: P/Q type voltage-gated presynaptic calcium channel (Q type); details: cited from earlier work
[2] = biological target: P/Q type voltage-gated presynaptic calcium channel (P type); details: cited from earlier work

Substance: ω-agatoxin IVA
- Kd [1]: 100 to 200 nM
- Kd [2]: 1 to 3 nM
